Pooled drug test results. Numbers come from NIAID ChemDB, via PubChem.

Common to all: growth or infection tests; species: Mycobacterium kansasii

MIC50, MIC90 and the like: level of inhibition, or share of isolates inhibited. Blank or dashed fields: not listed here. Conditions beyond the fields shown may differ between rows.

structure | method | setting | endpoint | strain | result
COc1ccc2oc(=S)n(-c3ccc(F)cc3)c(=S)c2c1 |  | 14 d | MIC | My 235/80 | 16 µM
O=C(Oc1cc(Cl)ccc1C(=O)Nc1cccc(Cl)c1)c1ccccc1 | broth dilution | 7 d | MIC | 235/80 | 2 µM
N=C(N)N1N=C(/C=C/c2ccc(Cl)cc2)CC1c1ccc(Cl)cc1 | resazurin |  | MIC |  | 6.96 µM
O=C(Nc1ccc(Br)cc1)c1cc(Cl)ccc1OS(=O)(=O)c1ccccc1 |  | 7 d | MIC | 6509/96 | 8 µM
Cc1ccc2oc(=S)n(-c3cccc(Cl)c3)c(=S)c2c1 |  | 14 d | MIC | 6509/96 | 2 µM
N/C(=N\N=C\c1cc(Br)ccc1O)SCc1ccc(C(F)(F)F)cc1 | broth dilution | 21 d | MIC | 6509/96 | 32 µM
O=C(Nc1ccc(F)cc1)c1ccc(Cl)cc1OS(=O)(=O)c1ccccc1 |  | 21 d | MIC | 235/80 | 32 µM
O=C(NNC(=O)c1ccncc1)Nc1ccc(Br)cc1F | broth dilution | 14 d | MIC100 | My 235/80 | >125 µM
O=C(Oc1ccc(Cl)cc1C(=O)Nc1cccc(F)c1)c1cnccn1 |  | 21 d | MIC | 235/80 | 8 µM
COc1cccc(CS/C(N)=N/N=C/c2cc(Cl)ccc2O)c1 | broth dilution | 14 d | MIC | 6509/96 | 62.5 µM
O=C(OCc1ccccc1)N1CCC[C@H]1c1cnc(-c2ccc([N+](=O)[O-])cc2)[nH]1 |  | 7 d | MIC | My 6509/96 | 32 µM
N/C(=N\N=C\c1cc(Br)ccc1O)SCc1ccc(F)cc1 | broth dilution | 14 d | MIC | 6509/96 | 32 µM
O=C(Nc1ccc(Cl)c(Cl)c1)c1cc(Cl)ccc1O | broth dilution | 7 d | MIC | 6509/96 | 8 µM
O=C(Nc1ccc(Cl)c(Cl)c1)c1cc(Cl)ccc1OS(=O)(=O)c1ccccc1 |  | 7 d | MIC | 6509/96 | 8 µM
O=C(Oc1cc(Cl)ccc1C(=O)Nc1ccc(Cl)cc1)c1ccccc1 | broth dilution | 7 d | MIC | 235/80 | 2 µM
O=C(NC1CCCCC1)N(C(=O)c1cnccn1)C1CCCCC1 |  | 7 d | MIC | 235/80 | 500 µM
O=C(NNC(=O)c1ccncc1)Nc1ccc(Cl)c(C(F)(F)F)c1 | broth dilution | 21 d | MIC100 | My 6509/96 | 125 µM
N/C(=N\N=C\c1ccccc1O)SCc1cccc(Cl)c1 | broth dilution | 21 d | MIC | ATCC 12478 | 62.5 µM
O=C(Nc1ccc(Cl)cc1)c1ccc(Cl)cc1OS(=O)(=O)c1ccccc1 |  | 21 d | MIC | 6509/96 | 16 µM
CC(=O)Oc1ccccc1C(=O)Nc1cnccn1 | resazurin |  | MIC |  | >100 µg/mL
FC(F)(F)c1cc(-c2ccccc2)nc(N2N=C(/C=C/c3ccc(Cl)cc3)CC2c2ccc(Cl)cc2)n1 | resazurin |  | MIC |  | 20.6 µM
Fc1cccc(-n2c(=S)oc3ccc(Cl)cc3c2=S)c1 |  | 21 d | MIC | 6509/96 | 8 µM
CC(C)[C@H](NC(=O)OCc1ccccc1)c1cnc(-c2ccccc2)[nH]1 |  | 14 d | MIC | My 6509/96 | 62.5 µM
O=C(Nc1ccc(Cl)c(Cl)c1)c1ccc(Cl)cc1OS(=O)(=O)c1ccccc1 |  | 7 d | MIC | 6509/96 | 8 µM
CCC(C)c1ccc(-n2c(=S)oc3cc(Cl)ccc3c2=S)cc1 | broth dilution | 14 d | MIC | 6509/96 | 2 µM
Cc1ccn2c(C(=O)NCc3ccc4c(c3)CCO4)c(C)nc2c1 | MTT |  | MIC | Clinical isolate 0008 | 32 µg/mL
CC(C)C[C@H](NC(=O)OCc1ccccc1)c1cnc(-c2ccccc2)[nH]1 |  | 7 d | MIC | My 235/80 | >250 µM
COc1ccc(Nc2nnc(-c3ccncc3)o2)cc1 | broth dilution | 7 d | MIC100 | My 6509/96 | >125 µM
CC(C)N=c1cc2n(-c3ccc(Cl)cc3)c3ccccc3nc-2cc1Nc1ccc(Cl)cc1 | fluorescence |  | MIC90 |  | 1.776 µg/mL
O=C(Nc1cccc(Br)c1)c1ccc(Cl)cc1OS(=O)(=O)c1ccccc1 |  | 21 d | MIC | 235/80 | 62.5 µM
Cc1ccc(NC(=O)c2cc(Cl)ccc2OC(=O)[C@@H](Cc2cc3ccccc3[nH]2)NC(=O)OCc2ccccc2)cc1 | broth dilution |  | MIC100 | DSM 44162 | 13.74 µM
O=C(Nc1ccc(F)cc1)c1cc(Cl)ccc1O | broth dilution | 14 d | MIC | 235/80 | 4 µM
Nc1ccc(C(=O)O)c(O)c1 |  | 21 d | MIC | 6509/96 | 500 µM
COc1ccc2oc(=S)n(-c3ccc(Cl)cc3)c(=S)c2c1 |  | 21 d | MIC | 6509/96 | 32 µM
O=C(NNC(=O)c1ccncc1)Nc1ccc(F)cc1Br | broth dilution | 21 d | MIC100 | My 235/80 | >125 µM
O=C(Oc1ccc(Cl)cc1C(=O)Nc1ccc(Cl)c(Cl)c1)c1cnccn1 |  | 14 d | MIC | 235/80 | 4 µM
O=C(Nc1cccc(F)c1)c1cc(Cl)ccc1O | broth dilution | 21 d | MIC | 235/80 | 8 µM
CC(C)[C@H](NC(=O)OCc1ccccc1)c1cnc(-c2ccc([N+](=O)[O-])cc2)[nH]1 |  | 21 d | MIC | My 235/80 | 62.5 µM
S=C=NCCCCCCN=C=S | visual reading |  | MIC |  | 8 µg/mL
Cc1ccc2nc(C)c(C(=O)NCc3ccc(C(F)(F)F)cc3)n2c1 | MTT |  | MIC | Clinical isolate SHP | 0.125 µg/mL
O=C(Oc1cc(Cl)ccc1C(=O)Nc1cccc(F)c1)c1cnccn1 |  | 14 d | MIC | 235/80 | 4 µM
COc1ccc(CS/C(N)=N/N=C/c2ccccc2O)cc1 | broth dilution | 21 d | MIC | 6509/96 | 250 µM
S=c1oc2ccc(Br)cc2c(=S)n1-c1ccc(Cl)c(Cl)c1 |  | 21 d | MIC | My 235/80 | 8 µM
O=C(Oc1cc(Cl)ccc1C(=O)Nc1ccc(Cl)c(Cl)c1)c1cnccn1 |  | 21 d | MIC | 235/80 | 8 µM
S=C=NCCCCCCCN=C=S | visual reading |  | MIC |  | 8 µg/mL
O=C(Oc1cc(Cl)ccc1C(=O)Nc1ccc(Cl)cc1)c1cnccn1 |  | 21 d | MIC | 6509/96 | 2 µM
O=C(N[C@@H](Cc1ccccc1)c1cnc(-c2ccc([N+](=O)[O-])cc2)[nH]1)OCc1ccccc1 |  | 7 d | MIC | My 6509/96 | 8 µM
O=C(Oc1cc(Cl)ccc1C(=O)Nc1cccc(Br)c1)c1cnccn1 |  | 14 d | MIC | 235/80 | 4 µM
CC[C@@H](C)[C@H](NC(=O)OCc1ccccc1)c1cnc(-c2ccccc2)[nH]1 |  | 14 d | MIC | My 6509/96 | 32 µM
O=C(N[C@H](C(=O)Oc1ccc(Cl)cc1C(=O)Nc1ccc(Br)cc1)C1CCCCC1)OCc1ccccc1 | broth dilution |  | MIC100 | DSM 44162 | 13.03 µM

For reference, 3 entries again:

structure,method,setting,endpoint,strain,result
O=C(Nc1ccc(Cl)c(Cl)c1)c1cc(Cl)ccc1OS(=O)(=O)c1ccccc1,,7 d,MIC,6509/96,8 µM
O=C(Oc1ccc(Cl)cc1C(=O)Nc1ccc(Cl)c(Cl)c1)c1cnccn1,,14 d,MIC,235/80,4 µM
Cc1ccc2nc(C)c(C(=O)NCc3ccc(C(F)(F)F)cc3)n2c1,MTT,,MIC,Clinical isolate SHP,0.125 µg/mL